Results as given in patent publication US20250268876A1, “TREATMENT OF HIDRADENITIS SUPPURATIVA WITH ORISMILAST” (UNION THERAPEUTICS A/S, priority 2021, published 2025).

Test system: TNF-α secretion from human whole blood
Experiment: Whole blood TNF-α secretion assay (LPS or SEB)
Assay type: cell-based
Conditions: 24 h, SEB 1 μg/mL, donor 1

SMILES: CCOc1cc([C@@H](CS(C)(=O)=O)N2C(=O)c3cccc(NC(C)=O)c3C2=O)ccc1OC [Apremilast]
- EC50: 139 nM
